Results of unrelated studies side by side (data: NIAID ChemDB).

All rows: tests on isolated targets

ICn is the concentration giving n% inhibition. Rows are shuffled and stem from different studies. Percent inhibition refers to the dose given; in toxicity tests it is the harm to the cells. An empty or dashed field is not shown.

compound	tested at	protein	organism	read-out	strain	value
CCCCCCCCCCCCC/C=C/[C@@H](O)[C@H](CO[C@@H]1O[C@H](CO)[C@H](O)[C@H](OS(=O)(=O)O)[C@H]1O)NC(=O)CCCCCCCCCCCCCCCCCCCCCCC	200 µM	Sialidase	Influenza A virus	inhibition	H3N8 A/equine/Tennessee/5/86	87.9%
CCOC(=O)CCNC(=O)NC1CCC(NC(=O)c2ccc3c(c2)nc(-c2ccoc2)n3C2CCCCC2)CC1	-	RNA-dependent RNA polymerase	Poliovirus	IC50	-	>25 µM
CC(C)N(CCCO)C(=O)N1CC(N)C(C(=O)O)C1	-	Neuraminidase	Influenza A virus	Ki	A/TOKYO/67	0.5 µM
CC(N)C(=O)N[C@@H]1CN(C(=O)N(C(C)C)C(C)C)C[C@@H]1C(=O)O	-	Neuraminidase	Influenza A virus	IC50	A/TOKYO	>50 µM
CCN(C(=O)N1C[C@H](C(=O)O)[C@H](N)[C@@H]1CNC(C)=O)C(C)C	-	Neuraminidase	Influenza A virus	Ki	A/TOKYO/67	4.4 µM
CCCCCCCCCCCCCCCCCC(=O)OC[C@@H](COP(=O)(O)OCCNCCO[C@@]1(C(=O)O)O[C@@H]([C@H](O)[C@H](O)CO)[C@H](NC(C)=O)[C@@H](O)[C@H]1F)OC(=O)CCCCCCCCCCCCCCCCC	-	Sialidase	Influenza A virus	IC50	H4N1 A/DUCK/849/3/80	125 µM
O=C(C[C@@H](O)C(=O)O)Nc1ccc(C[C@H](NC(=O)c2ccc3c(c2)nc(-c2ccoc2)n3C2CCCCC2)C(=O)O)cc1	-	RNA-dependent RNA polymerase	Poliovirus	IC50	-	>25 µM
CCCCN[C@@H]1CN(C(=O)N(C(C)C)C(C)C)C[C@@H]1C(=O)O	-	Neuraminidase	Influenza A virus	IC50	A/TOKYO	>50 µM
O=C(N[C@@H](Cc1ccc(O)cc1)c1cccnc1)c1ccc2c(c1)nc(-c1ccoc1)n2C1CCCCC1	-	RNA-dependent RNA polymerase	Poliovirus	IC50	-	>25 µM
COc1ccc([C@H](NC(=O)c2ccc3c(c2)nc(-c2ccoc2)n3C2CCCCC2)C(=O)O)cc1OC	-	RNA-dependent RNA polymerase	Poliovirus	IC50	POLIO VIRUS	100 µM
CC(C)(C)OC(=O)N1C[C@H](N)[C@H](C(=O)O)C1	-	Neuraminidase	Influenza A virus	Ki	TOKYO/3/67	59 µM
Cc1nc(C[C@H](Cc2ccc(OCC(=O)O)cc2)NC(=O)c2ccc3c(c2)nc(-c2ccoc2)n3C2CCCCC2)cs1	-	RNA-dependent RNA polymerase	Poliovirus	IC50	-	>25 µM
CCN(C(=O)N1C[C@H](O)[C@](O)(C(=O)O)C1)C(C)C	-	Neuraminidase	Influenza A virus	Ki	TOKYO/3/67	940 µM
O=C(N[C@@H](Cc1ccc(C2CC2C(=O)O)cc1)C(=O)O)c1ccc2c(c1)nc(-c1ccoc1)n2C1CCCCC1	-	RNA-dependent RNA polymerase	Poliovirus	IC50	-	>25 µM
O=C(O)COc1ccc2[nH]c(C[C@H](NC(=O)c3ccc4c(c3)nc(-c3ccoc3)n4C3CCCCC3)C(=O)O)cc2c1	-	RNA-dependent RNA polymerase	Poliovirus	IC50	POLIO VIRUS	>100 µM
CCCCCCCCCCCCCCCCCC(=O)OC[C@@H](COP(=O)(O)OCCNCCO[C@@]1(C(=O)O)O[C@@H]([C@H](O)[C@H](O)CO)[C@H](NC(C)=O)[C@@H](O)[C@H]1F)OC(=O)CCCCCCCCCCCCCCCCC	-	Sialidase	Influenza A virus	IC50	H1N1 A/swine/Hokkaido/2/81	125 µM
O=c1nc[nH]c(=O)c2c1ncn2[C@H]1O[C@@H](CO)[C@H](O)[C@@H]1O	-	NTPase/helicase	Japanese encephalitis virus	IC50	-	>500 µM
CCN(C(=O)C1CC(C(=O)O)C(N)C1CNC(C)=O)C(C)C	-	Neuraminidase	Influenza A virus	IC50	A/TOKYO/67	24 µM
COc1ccc(C(NC(=O)c2ccc3c(c2)nc(-c2ccc4c(c2)OCCO4)n3C2CCCCC2)C(=O)O)cc1OC	-	RNA-dependent RNA polymerase	Poliovirus	IC50	-	>25 µM
O=C(O)COc1ccc(C[C@H](NC(=O)c2ccc3c(c2)nc(-c2ccoc2)n3C2CCCCC2)C(=O)O)cc1	-	RNA-dependent RNA polymerase	Poliovirus	IC50	POLIO VIRUS	100 µM
O=C(NCC1CCNCC1)c1ccc2c(c1)nc(-c1ccoc1)n2C1CCCCC1	-	RNA-dependent RNA polymerase	Poliovirus	IC50	-	>25 µM
CNC(=O)N1CC(C(=O)O)C(N)C1CNC(C)=O	-	Neuraminidase	Influenza A virus	IC50	A/TOKYO/67	470 µM

3 of the rows above, restated:

| compound | tested at | protein | organism | read-out | strain | value |
|---|---|---|---|---|---|---|
| COc1ccc([C@H](NC(=O)c2ccc3c(c2)nc(-c2ccoc2)n3C2CCCCC2)C(=O)O)cc1OC | - | RNA-dependent RNA polymerase | Poliovirus | IC50 | POLIO VIRUS | 100 µM |
| O=C(NCC1CCNCC1)c1ccc2c(c1)nc(-c1ccoc1)n2C1CCCCC1 | - | RNA-dependent RNA polymerase | Poliovirus | IC50 | - | >25 µM |
| CCCCCCCCCCCCC/C=C/[C@@H](O)[C@H](CO[C@@H]1O[C@H](CO)[C@H](O)[C@H](OS(=O)(=O)O)[C@H]1O)NC(=O)CCCCCCCCCCCCCCCCCCCCCCC | 200 µM | Sialidase | Influenza A virus | inhibition | H3N8 A/equine/Tennessee/5/86 | 87.9% |